Measured values from several laboratories, pooled; numbers as filed in NIAID ChemDB.

Common to all: growth or infection tests; agent: HIV-1; read by: cytopathic effect / MTT; measure: EC50

a–b is a range or a potency band.

smiles	strain or isolate	changes	cell line	conditions	value
Cc1cn([C@H]2C[C@H](N=[N+]=[N-])[C@@H](CO)O2)c(=O)[nH]c1=O	IIIB MKC-442-resistant (RT Y181C)	RT-Y181C	MT-4	-	0.001 µM
Nc1ccn([C@H]2CC[C@@H](CO)O2)c(=O)n1	IIIB	-	MT-4	-	0.18–0.26 µM
O=C(Oc1nsnc1-c1c(Cl)cccc1Cl)N1CCCCC1	IIIB	-	MT-4	-	0.96 µM
Cc1ccc2c(c1)Sc1c(c(=O)[nH]c(=O)n1COCc1ccccc1)N2	-	-	MT-4	-	>1.9 µg/mL
Nc1n[nH]c2ccc(CN3C(=O)N(Cc4ccc5[nH]nc(N)c5c4)[C@H](Cc4ccccc4)[C@H](O)[C@H]3CCc3ccccc3)cc12	RF	-	MT-2	-	<0.383 µM
O=c1[nH]c(=O)n(COCc2ccccc2)c2c1Nc1ccc(Cl)cc1S2	-	-	MT-4	-	>3 µg/mL
Cc1cn([C@H]2C[C@H](N=[N+]=[N-])[C@@H](CO)O2)c(=O)[nH]c1=O	BRU	-	CEM-C113 + CEM/C113	22 d	0.45 µM
Cc1[nH]nc2ccc(CN3C(=O)N(Cc4cccc(N)c4)[C@H](Cc4ccccc4)[C@H](O)[C@H]3CCc3ccccc3)cc12	RF	-	MT-2	-	<0.032 µM
COc1cc2c(cc1OC)[C@H]1[C@H]3C(=CC[C@H]1OC2=O)CCN3C	IIIB	-	MT-4	-	7.3 µg/mL
Cc1cn([C@@H]2C[C@@H](N=[N+]=[N-])[C@H](COP(=O)(O)OC[C@H]3O[C@@H](n4cc(C)c(=O)[nH]c4=O)C[C@@H]3N=[N+]=[N-])O2)c(=O)[nH]c1=O	IIIB	-	C8166	-	0.016 µM
Cc1ccnc2c1NC(=O)c1cccnc1N2C1CC1	NL4-3	-	MT-4	-	0.02 µg/mL
CCCC(=O)Oc1ccc(COP(=O)(OC[C@@H]2O[C@H](n3cc(C)c(=O)[nH]c3=O)C[C@H]2N=[N+]=[N-])OC[C@H]2O[C@@H](n3cc(C)c(=O)[nH]c3=O)C[C@@H]2N=[N+]=[N-])cc1	IIIB	-	C8166	-	0.003 µM
Cc1cn([C@H]2CC[C@@H](CO)O2)c(=O)[nH]c1=O	BRU	-	CEM-C113 + CEM/C113	22 d	>25 µM
CCCCN(C)C(=O)Oc1nsnc1-c1c(Cl)cccc1Cl	IIIB-R (RT-Y181C)	RT-Y181C	MT-4	-	7.3 µM
NC(=O)c1ncn([C@@H]2O[C@H](CO)[C@@H](O)[C@H]2O)n1	IIIB MKC-442-resistant (RT Y181C)	RT-Y181C	MT-4	-	>3.3 µM
O=c1[nH]c(=O)n(COCc2ccccc2)c2c1Nc1ccccc1S2	-	-	MT-4	-	>23 µg/mL
CCc1c(Sc2cc(C)cc(C)c2)n(COCCOP(=O)(O)OC[C@H]2O[C@@H](n3cc(C)c(=O)[nH]c3=O)C[C@@H]2N=[N+]=[N-])c(=O)[nH]c1=O	IIIB	RT-D67N K70R K172R	MT-4	-	0.01 µM
O=C1N(Cc2ccc3cn[nH]c3c2)[C@H](CCc2ccccc2)[C@@H](O)[C@@H](Cc2ccccc2)N1Cc1ccc2cn[nH]c2c1	RF	-	MT-2	-	<0.032 µM
CC(C)(C)NC(=O)[C@@H]1C[C@@H]2CCCC[C@@H]2CN1C[C@@H](O)[C@H](Cc1ccccc1)NC(=O)[C@H](CC(N)=O)NC(=O)c1ccc2ccccc2n1	NL4-3 PR S12T I15V I19L M36I R41K H69K L89M CLONE 5( C )	-	MT-4	-	0.0029 µM
CCCCCCCCCCCCCCCCCOP(=O)(OC[C@H]1O[C@@H](O)[C@@H](O)[C@@H](O)[C@@H]1O)OC[C@H]1O[C@@H](n2cc(C)c(=O)[nH]c2=O)C[C@@H]1N=[N+]=[N-]	BRU	-	CEM-C113 + CEM/C113	22 d	0.4 µM
Nc1n[nH]c2ccc(CN3C(=O)N[C@H](CCc4ccccc4)[C@@H](O)[C@H]3Cc3ccccc3)cc12	RF	-	MT-2	-	<0.549 µM
CN(C)C(=O)Oc1nsnc1-c1ccccc1Cl	IIIB-R (RT-Y181C)	RT-Y181C	MT-4	-	>162 µM
Cc1cn([C@H]2C[C@H](N=[N+]=[N-])[C@@H](CO)O2)c(=O)[nH]c1=O	G	-	CEM + CEM-SS	-	0.006 µM
CC(=O)Oc1ccc(COP(=O)(OC[C@H]2CC[C@@H](n3cnc4c(=O)[nH]cnc43)O2)OC[C@H]2O[C@@H](n3cc(C)c(=O)[nH]c3=O)C[C@@H]2N=[N+]=[N-])cc1	IIIB	-	C8166	-	0.032 µM
CN(C)C(=O)Oc1nsnc1-c1c(Cl)cccc1Cl	IIIB	-	MT-4	-	0.2 µM
Cc1cn([C@H]2C[C@H](N=[N+]=[N-])[C@@H](COP(=O)(OCc3ccc(OC(=O)C(C)(C)C)cc3)OC[C@H]3CC[C@@H](n4cnc5c(=O)[nH]cnc54)O3)O2)c(=O)[nH]c1=O	IIIB	-	C8166	-	0.02 µM
CN(C)C(=O)Oc1nsnc1-c1cc(Cl)ccc1Cl	IIIB-R (RT-Y181C)	RT-Y181C	MT-4	-	>111 µM
O=C1N(Cc2ccccc2)[C@H](CCc2ccccc2)[C@@H](O)[C@@H](Cc2ccccc2)N1Cc1ccccc1	RF	-	MT-2	-	<2.8 µM
Cc1c(O)cccc1C(=O)N[C@@H](CSc1ccccc1)[C@H](O)CN1C[C@H]2CCCC[C@H]2C[C@H]1C(=O)NC(C)(C)C	NL4-3 PR-S12T I15V I19L M36I R41K H69K L89M I93L CLONE 6( C )	-	MT-4	-	0.0322 µM
CC(C)(C)NC(=O)c1ccccc1CCC(O)Cc1ccc2ccccc2c1C(=O)NC(C)(C)C	RF	-	CEM + CEM-SS	-	>60 µM
O=C1N[C@H](CCc2ccccc2)[C@@H](O)[C@@H](Cc2ccccc2)N1Cc1ccc2[nH]ncc2c1	RF	-	MT-2	-	<0.59 µM

Repeating the final 4 entries:

{"smiles": "O=C1N(Cc2ccccc2)[C@H](CCc2ccccc2)[C@@H](O)[C@@H](Cc2ccccc2)N1Cc1ccccc1", "strain or isolate": "RF", "cell line": "MT-2", "value": "<2.8 µM"}
{"smiles": "Cc1c(O)cccc1C(=O)N[C@@H](CSc1ccccc1)[C@H](O)CN1C[C@H]2CCCC[C@H]2C[C@H]1C(=O)NC(C)(C)C", "strain or isolate": "NL4-3 PR-S12T I15V I19L M36I R41K H69K L89M I93L CLONE 6( C )", "cell line": "MT-4", "value": "0.0322 µM"}
{"smiles": "CC(C)(C)NC(=O)c1ccccc1CCC(O)Cc1ccc2ccccc2c1C(=O)NC(C)(C)C", "strain or isolate": "RF", "cell line": "CEM + CEM-SS", "value": ">60 µM"}
{"smiles": "O=C1N[C@H](CCc2ccccc2)[C@@H](O)[C@@H](Cc2ccccc2)N1Cc1ccc2[nH]ncc2c1", "strain or isolate": "RF", "cell line": "MT-2", "value": "<0.59 µM"}

Blank or dashed fields: not listed here. Neighbouring rows are from separate reports. ECn is the concentration giving n% inhibition of infection, replication or growth.